The values below come from patent US8557848B2, “4,5-ring annulated indole derivatives for treating or preventing of HCV and related viral infections” (Merck Sharp & Dohme Corp., priority 2006, dated 2013).

Structures were worked out from names or drawings and are uncertain. A value given as a limit tells only on which side of the number the result lay.

Assay [1] concerns the target HCV NS5B polymerase (NS5BΔCT21, from HCV-Con 1 isolate, genotype 1b) (Hepatitis C virus genotype 1b, UniProt Q9WMX2). Nature of the assay: HCV NS5B Polymerase Inhibition Assay. The note with it: [33P]-CTP incorporation, 22° C. for 2 hours. The text has this:
A chemically synthesized 75-mer version, designated DCoH75, whose sequence matches the 3′-end of D-RNA, and DCoH75ddC, where the 3′-terminal cytidine of DCoH75 is replaced by dideoxycytidine, were used for assaying the NS5B enzyme activity as described in Ferrari et al., 12th International Symposium on HCV and Related Viruses, P-306 (2005). The sequence of the template RNA was: 5′-UGUGCCGGUCUUUCUGAACGGGAUAUAAACCUGGCCAGCUUCAUCGAACAAGUUGCCGUGUCUAUGACAUAGAUC-3′. A soluble C-terminal 21-amino acid truncated NS5B enzyme form (NS5BΔCT21, from HCV-Con 1 isolate, genotype 1b, Genbank accession number AJ238799) was produced and purified from Escherichia coli as C-terminal polyhistidine-tagged fusion protein as described in Ferrari et al., J. Virol. 73:1649-1654 (1999). A typical assay contained 20 mM Hepes pH 7.3, 10 mM MgCl2, 60 mM NaCl, 100 μg/ml BSA, 20 units/ml RNasin, 7.5 mM DTT, 0.1 μM ATP/GTP/UTP, 0.026 μM CTP, 0.25 mM GAU, 0.03 μM RNA template, 20 μCi/ml [^33P]-CTP, 2% DMSO, and 30 or 150 nM NS5B enzyme. Reactions were incubated at 22° C. for 2 hours, then stopped by adding 150 mM EDTA, washed in DE81 filter plate in 0.5M di-basic sodium phosphate buffer, pH 7.0, and counted using Packard TopCount after the addition of scintillation cocktail. Polynucleotide synthesis was monitored by the incorporation of radiolabeled CTP. The effect of the Compounds of Formula (I) on the polymerase activity was evaluated by adding various concentrations of a Compound of Formula (I), typically in 10 serial 2-fold dilutions, to the assay mixture. The starting concentrations ranged from 200 μM to 1 μM. An IC50 value for the inhibitor, defined as the compound concentration that provides 50% inhibition of polymerase activity, was determined by fitting the cpm data to the Hill equation Y=100/(1+10^((LogIC50-X)*HillSlope)), where X is the logarithm of compound concentration, and Y is the % inhibition. Ferrari et al., 12th International Symposium on HCV and Related Viruses, P-306 (2005) described in detail this assay procedure. […]

Assay [2] relates to HCV replicon cells (replicon RNA level). Description: Cell-Based HCV Replicon Assay. The note with it: replicon RNA level by real time PCR (Taqman), cells harvested on day 3. The method, then:
To measure cell-based anti-HCV activity of the a Compound of Formula (I), replicon cells were seeded at 5000 cells/well in 96-well collagen I-coated Nunc plates in the presence of the Compound of Formula (I). Various concentrations of a Compound of Formula (I), typically in 10 serial 2-fold dilutions, were added to the assay mixture, with the starting concentration ranging from 250 μM to 1 μM. The final concentration of DMSO was 0.5%, fetal bovine serum was 5%, in the assay media. Cells were harvested on day 3 by the addition of 1× cell lysis buffer (Ambion cat #8721). The replicon RNA level was measured using real time PCR (Taqman assay). The amplicon was located in 5B. The PCR primers were: 5B.2F, ATGGACAGGCGCCCTGA; 5B.2R, […]; the probe sequence was FAM-labeled CACGCCATGCGCTGCGG. GAPDH RNA was used as endogenous control and was amplified in the same reaction as NS5B (multiplex PCR) using primers and VIC-labeled probe recommended by the manufacturer (PE Applied Biosystem). The real-time RT-PCR reactions were run on ABI PRISM 7900HT Sequence Detection System using the following program: 48° C. for 30 min, 95° C. for 10 min, 40 cycles of 95° C. for 15 sec, 60° C. for 1 min. The ΔCT values (CT5B-CTGAPDH) were plotted against the concentration of test compound and fitted to the sigmoid dose-response model using XLfit4 (MDL). EC50 was defined as the concentration of inhibitor necessary to achieve ΔCT=1 over the projected baseline; EC90 the concentration necessary to achieve ΔCT=3.2 over the baseline. Alternatively, to quantitate the absolute amount of replicon RNA, a standard curve was established by including serially diluted T7 transcripts of replicon RNA in the Taqman assay. All Taqman reagents were from PE Applied Biosystems. Such an assay procedure was described in detail in e.g. Malcolm et al., Antimicrobial Agents and Chemotherapy 50: 1013-1020 (2006).
HCV Replicon assay data for selected Compounds of Formula (I) is provided below in Table 1, wherein the compound numbers correspond to the compound numbering set forth in the above specification. The data is designated as follows: “A” for EC50 values less than 0.5 micromolar (μM), “B” for EC50 values between 0.5 and 1.5 μM and “C” for EC50 values greater than 1.5 μM.

`O=C(O)c1c(-c2ccc[nH]c2=O)c2c3occc3ccc2n1Cc1cc(F)ccc1F` registered an IC50 in assay [1] of 25 to 100 nM. Besides, in assay [2], the half-maximal effective concentration (EC50) was under 500 nM.
The compound `CS(=O)(=O)NC(=O)c1c(-c2ccc[nH]c2=O)c2c3occ(Cl)c3ccc2n1Cc1cc(F)ccc1F` gave an IC50 in assay [1] of under 25 nM. Besides, the EC50 in assay [2] was under 500 nM.
With `CS(=O)(=O)NC(=O)c1c(-c2ccc[nH]c2=O)c2c3sccc3ccc2n1Cc1ccc(F)cc1F`, the half-maximal inhibitory concentration (IC50) in assay [1] was under 25 nM. Also, the EC50 is over 1500 nM in assay [2] and under 500 nM in assay [2] (listed as 6).
